Source: patent US20240122867A1, “CORONAL PROTEIN-COATED NANOPARTICLES AND USES THEREOF” (UNIVERSITY OF CENTRAL FLORIDA RESEARCH FOUNDATION, INC., priority 2021, published 2024)

B1: Beta-2-glycoprotein 1 (protein, UniProt Q01339 20-345, looked up)
Beta-2-glycoprotein 1: GRICPKPDDLPFATVVPLKTSYDPGEQIVYSCKPGYVSRGGMRRFTCPLTGMWPINTLRCVPRVCPFAGILENGIVRYTSFEYPKNISFACNPGFFLNGTSSSKCTEEGKWSPDIPACARITCPPPPVPKFALLKDYRPSAGNNSLYQDTVVFKCLPHFAMIGNDTVMCTEQGNWTRLPECLEVKCPFPPRPENGYVNYPAKPVLLYKDKATFGCHETYKLDGPEEAECTKTGTWSFLPTCRESCKLPVKKATVLYQGMRVKIQEQFKNGMMHGDKIHFYCKNKEKKCSYTVEAHCRDGTIEIPSCFKEHSSLAFWKTDASELTPC
B2: Carboxylesterase 1C (protein, UniProt P23953 19-554, looked up)
Carboxylesterase 1C: HSLLPPVVDTTQGKVLGKYISLEGFEQPVAVFLGVPFAKPPLGSLRFAPPQPAEPWSFVKNATSYPPMCSQDAGWAKILSDMFSTEKEILPLKISEDCLYLNIYSPADLTKSSQLPVMVWIHGGGLVIGGASPYNGLALSAHENVVVVTIQYRLGIWGLFSTGDEHSPGNWAHLDQLAALRWVQDNIANFGGNPDSVTIFGESSGGISVSVLVLSPLGKDLFHRAISESGVVINTNVGKKNIQAVNEIIATLSQCNDTSSAAMVQCLRQKTESELLEISGKLVQYNISLSTMIDGVVLPKAPEEILAEKSFNTVPYIVGFNKQEFGWIIPMMLQNLLPEGKMNEETASLLLRRFHSELNISESMIPAVIEQYLRGVDDPAKKSELILDMFGDIFFGIPAVLLSRSLRDAGVSTYMYEFRYRPSFVSDKRPQTVEGDHGDEIFFVFGAPLLKEGASEEETNLSKMVMKFWANFARNGNPNGEGLPHWPEYDEQEGYLQIGATTQQAQRLKAEEVAFWTELLAKNPPETDPTEHTEHK
B3: Serine protease inhibitor A3N (protein, UniProt Q91WP6 21-418, looked up)
Serine protease inhibitor A3N: FPDGTLGMDAAVQEDHDNGTQLDSLTLASINTDFAFSLYKELVLKNPDKNIVFSPLSISAALAVMSLGAKGNTLEEILEGLKFNLTETSEADIHQGFGHLLQRLNQPKDQVQISTGSALFIEKRQQILTEFQEKAKTLYQAEAFTADFQQPRQAKKLINDYVRKQTQGMIKELVSDLDKRTLMVLVNYIYFKAKWKVPFDPLDTFKSEFYAGKRRPVIVPMMSMEDLTTPYFRDEELSCTVVELKYTGNASALFILPDQGRMQQVEASLQPETLRKWKNSLKPRMIDELHLPKFSISTDYSLEDVLSKLGIREVFSTQADLSAITGTKDLRVSQVVHKAVLDVAETGTEAAAATGVKFVPMSAKLYPLTVYFNRPFLIMIFDTETEIAPFIAKIANPK
B4: Complement factor I (protein, UniProt Q61129 19-603, looked up)
Complement factor I: RSPSASDLPQEELVDQKCLLQKYTHRSCNKVFCQPWQRCIEGTCICKLPYQCPRAGTPVCAMNGRSYPTYCHQKSFECLHPEIKFSHNGTCAAEGKFNVSLIYGRTKTEGLVQVKLVDQDERMFICKNSWSMAEANVACVDLGFPLGVRDIQGSFNISGNLHINDTECLHVHCRGVETSLAECAFTKRRTELSNGLAGVVCYKQDADFPTSLSFQCVNGKHIPQEKACNGVNDCGDQSDELCCKGCRGNASLCKSGVCIPDQYKCNGEVDCITGEDESRCEEDRQQNIPKGLARSAQGEAEIETEETEMLTPGMDNERKRIKSLLPKLSCGVKRNTHTRRKRVIGGKPANVGDYPWQVAIKDGQRITCGGIYIGGCWILTAAHCVRPSRAHSYQVWTALLDWLKPNSQLGIQTVKRVIVHEKYNGATFQNDIALIEMKMHTGKKECELPNSVPACVPWSPYLFQPNDRCIISGWGRGKDNQKVYSLRWGEVDLIGNCSQFYPDRYYEKEMQCAGTRDGSIDACKGDSGGPLVCEDINNVTYVWGIVSWGENCGKPEFPGVYTRVANYFDWISYHVGRSLVSQHNV

What follows are molecules tested on coronal proteins on NPs. Details: HBPE-NPs incubated 1 h with IAV day 5 (V5) mouse sera, 20:1 NP:sera, centrifuged and washed.
Design: species or system mouse

Molecule	V5 Sera_Nanoparticles Quantitative Value (Normalized Total Spectra)
B1	25.022
B2	21.758
B3	20.67
B4	19.583

Same assay, conditions: IAV day 5 (V5) mouse sera alone, no NPs (sera-only control)

Molecule	V5 Sera Alone (Control) Quantitative Value (Normalized Total Spectra)
B1	21.28
B2	28.682
B3	19.43
B4	17.579
